Target: human voltage-gated sodium channel NaV1.7 (human)
Assay: whole-cell voltage clamp (kinetics of block of Na+ current)

Question: Which results are given for “μ-Conotoxin KIIIA (from UniProt P0C195 5-22) (peptide)”?
Answer: Kd: 59 nM; koff: 5e-05 s⁻¹; kon: 900 M⁻¹ s⁻¹

Source: article PMC10060530, “Molecular determinants of μ-conotoxin KIIIA interaction with the human voltage-gated sodium channel NaV1.7” (2023)
